Results taken from patent US20170204167A1 (INSTITUTE FOR RESEARCH IN BIOMEDICINE, published 2017).

Columns and labels:
Test in all cases: ELISA on recombinant or purified HA
[1] = target: HA of H3N2 A/Brisbane/10/07 (influenza A virus H3N2 A/Brisbane/10/07)
[2] = target: HA of H3N2 A/Wyoming/3/03 (influenza A virus H3N2 A/Wyoming/3/03)
[3] = target: HA of H3N2 A/New York/55/04 (influenza A virus H3N2 A/New York/55/04)

B1: FI6 variant 3 (antibody, V domains shown)
VH: QVQLVESGGGVVQPGRSLRLSCAASGFTFSTYAMHWVRQAPGKGLEWVAVISYDANYKYYADSVKGRFTISRDNSKNTLYLQMNSLRAEDTAVYYCAKDSQLRSLLYFEWLSQGYFDYWGQGTLVTVSS
VL: DIVMTQSPDSLAVSLGERATINCKSSQSVTFNYKNYLAWYQQKPGQPPKLLIYWASTRESGVPDRFSGSGSGTDFTLTISSLQAEDVAVYYCQQHYRTPPTFGQGTKVEIK
In the case of B1, the EC50 [1] is reported as 0.037 µg/mL, the EC50 [2] is reported as 0.023 µg/mL and the EC50 [3] is reported as 0.038 µg/mL.
